{"source": "PubChem BioAssay AID1259414 (Drosophila RNAi Screening Center, 2018)", "purpose": "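Fly genes that alter Wolbachia amount inside host cells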 (primary screen)", "cell system": "Drosophila JW18 cells infected with Wolbachia", "reagents": "long dsRNA against Drosophila genes, 0.25 µg dsRNA per well of a 384-well plate", "duration": "5 days", "conditions": "cells persistently infected with Wolbachia before knock-down; no added drug", "detection": "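Imaged fluorescence in situ signal for Wolbachia 23S rRNA per DAPI-counted host cell, given as a robust z-score within each plate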", "reading the numbers": "Wolbachia per cell robust z: higher = more Wolbachia per host cell than the plate typical", "active means": "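Hit when robust z is 1.5 or more, or -1.5 or less, in at least two of three replicates; excludes dsRNAs with several or no targets, genes not expressed in JW18 and well A1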", "note": "In all, the deposit lists about 24,000 reagents; shown is a random part of those that have a named target and a result. In the full data, about 1,210 (5%) were called active. 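Inactive calls also include excluded dsRNAs with several or no targets, genes unexpressed in JW18, and well A1, regardless of score.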 Entries without a mark were called inactive. A plus sign joins genes that one reagent is predicted to hit."}
{"Gene":"CG14811","dsRNA":"DRSC17962","Wolbachia per cell robust z, rep 1":0.885,"Wolbachia per cell robust z, rep 2":-1.87,"Wolbachia per cell robust z, rep 3":0.542}
{"Gene":"Mal-A2","dsRNA":"DRSC07460","Wolbachia per cell robust z, rep 1":-0.24,"Wolbachia per cell robust z, rep 2":-5.38,"Wolbachia per cell robust z, rep 3":0.672}
{"Gene":"CG15208","dsRNA":"DRSC19654","Wolbachia per cell robust z, rep 1":-3.62,"Wolbachia per cell robust z, rep 2":0.386,"Wolbachia per cell robust z, rep 3":-0.797}
{"Gene":"CR33013","dsRNA":"DRSC06286","Wolbachia per cell robust z, rep 1":-0.431,"Wolbachia per cell robust z, rep 2":-2.46,"Wolbachia per cell robust z, rep 3":-0.194}
{"Gene":"CR33013","dsRNA":"DRSC25681","Wolbachia per cell robust z, rep 1":0.912,"Wolbachia per cell robust z, rep 2":0.688,"Wolbachia per cell robust z, rep 3":-0.533}
{"Gene":"Cyp4p2","dsRNA":"DRSC07373","Wolbachia per cell robust z, rep 1":0.45,"Wolbachia per cell robust z, rep 2":0.622,"Wolbachia per cell robust z, rep 3":-0.91}
{"Gene":"Cyp4p2","dsRNA":"DRSC26900","Wolbachia per cell robust z, rep 1":-6.56,"Wolbachia per cell robust z, rep 2":-0.207,"Wolbachia per cell robust z, rep 3":-0.347}
{"Gene":"stai","dsRNA":"DRSC02920","Wolbachia per cell robust z, rep 1":0.491,"Wolbachia per cell robust z, rep 2":-0.913,"Wolbachia per cell robust z, rep 3":-0.247}
{"Gene":"stai","dsRNA":"DRSC22235","Wolbachia per cell robust z, rep 1":0.621,"Wolbachia per cell robust z, rep 2":-0.0949,"Wolbachia per cell robust z, rep 3":-1.28}
{"Gene":"stai","dsRNA":"DRSC28369","Wolbachia per cell robust z, rep 1":"-1.28 (active)","Wolbachia per cell robust z, rep 2":-1.65,"Wolbachia per cell robust z, rep 3":-3.7}

Continued, starting with the last 2 of the part before.
{"Gene":"stai","dsRNA":"DRSC22235","Wolbachia per cell robust z, rep 1":0.621,"Wolbachia per cell robust z, rep 2":-0.0949,"Wolbachia per cell robust z, rep 3":-1.28}
{"Gene":"stai","dsRNA":"DRSC28369","Wolbachia per cell robust z, rep 1":"-1.28 (active)","Wolbachia per cell robust z, rep 2":-1.65,"Wolbachia per cell robust z, rep 3":-3.7}
{"Gene":"Smug","dsRNA":"DRSC15762","Wolbachia per cell robust z, rep 1":0.333,"Wolbachia per cell robust z, rep 2":-0.359,"Wolbachia per cell robust z, rep 3":0.766}
{"Gene":"CG42592","dsRNA":"DRSC41366","Wolbachia per cell robust z, rep 1":0.122,"Wolbachia per cell robust z, rep 2":-0.319,"Wolbachia per cell robust z, rep 3":-0.711}
{"Gene":"Ttc7","dsRNA":"DRSC04836","Wolbachia per cell robust z, rep 1":-0.368,"Wolbachia per cell robust z, rep 2":-0.839,"Wolbachia per cell robust z, rep 3":-0.944}
{"Gene":"CG14352","dsRNA":"DRSC00382","Wolbachia per cell robust z, rep 1":0.689,"Wolbachia per cell robust z, rep 2":-1.47,"Wolbachia per cell robust z, rep 3":0.206}
{"Gene":"mRpL18","dsRNA":"DRSC06142","Wolbachia per cell robust z, rep 1":-5.57,"Wolbachia per cell robust z, rep 2":-0.164,"Wolbachia per cell robust z, rep 3":0.24}
{"Gene":"CG3529","dsRNA":"DRSC10369","Wolbachia per cell robust z, rep 1":0.287,"Wolbachia per cell robust z, rep 2":0.673,"Wolbachia per cell robust z, rep 3":0.551}
{"Gene":"CG3529","dsRNA":"DRSC25300","Wolbachia per cell robust z, rep 1":1.18,"Wolbachia per cell robust z, rep 2":1.27,"Wolbachia per cell robust z, rep 3":0.325}
{"Gene":"CG9166","dsRNA":"DRSC07842","Wolbachia per cell robust z, rep 1":-1.25,"Wolbachia per cell robust z, rep 2":0.603,"Wolbachia per cell robust z, rep 3":0.45}
{"Gene":"eIF3a","dsRNA":"DRSC12339","Wolbachia per cell robust z, rep 1":1.55,"Wolbachia per cell robust z, rep 2":0.0819,"Wolbachia per cell robust z, rep 3":1.25}
{"Gene":"eIF3a","dsRNA":"DRSC28481","Wolbachia per cell robust z, rep 1":"0.594 (active)","Wolbachia per cell robust z, rep 2":3.8,"Wolbachia per cell robust z, rep 3":1.9}
{"Gene":"p24-2 + Unc-115b","dsRNA":"DRSC16492","Wolbachia per cell robust z, rep 1":0.0798,"Wolbachia per cell robust z, rep 2":0.8,"Wolbachia per cell robust z, rep 3":-0.178}
{"Gene":"Tace","dsRNA":"DRSC16340","Wolbachia per cell robust z, rep 1":0.689,"Wolbachia per cell robust z, rep 2":-0.251,"Wolbachia per cell robust z, rep 3":0.788}
{"Gene":"Pus10","dsRNA":"DRSC00629","Wolbachia per cell robust z, rep 1":1.22,"Wolbachia per cell robust z, rep 2":-8.16,"Wolbachia per cell robust z, rep 3":1.03}
{"Gene":"upd1","dsRNA":"DRSC20358","Wolbachia per cell robust z, rep 1":-3.85,"Wolbachia per cell robust z, rep 2":0.394,"Wolbachia per cell robust z, rep 3":0.853}
{"Gene":"upd1","dsRNA":"DRSC28435","Wolbachia per cell robust z, rep 1":-0.156,"Wolbachia per cell robust z, rep 2":0.863,"Wolbachia per cell robust z, rep 3":-0.263}
{"Gene":"CG13532","dsRNA":"DRSC04174","Wolbachia per cell robust z, rep 1":0.505,"Wolbachia per cell robust z, rep 2":-0.283,"Wolbachia per cell robust z, rep 3":-5.17}
{"Gene":"Calr","dsRNA":"DRSC16614","Wolbachia per cell robust z, rep 1":-0.165,"Wolbachia per cell robust z, rep 2":0.234,"Wolbachia per cell robust z, rep 3":0.921}
{"Gene":"Calr","dsRNA":"DRSC29891","Wolbachia per cell robust z, rep 1":0.705,"Wolbachia per cell robust z, rep 2":1.17,"Wolbachia per cell robust z, rep 3":0.227}
{"Gene":"Ttd14","dsRNA":"DRSC06632","Wolbachia per cell robust z, rep 1":"0.633 (active)","Wolbachia per cell robust z, rep 2":-6.12,"Wolbachia per cell robust z, rep 3":-2.47}
{"Gene":"Ttd14","dsRNA":"DRSC06942","Wolbachia per cell robust z, rep 1":-0.211,"Wolbachia per cell robust z, rep 2":-0.227,"Wolbachia per cell robust z, rep 3":0.0785}
